US20230380451A1, “MEANS AND METHODS TO DETOXIFY MYCOTOXINS” (priority 2020, published 2023)

Tested on: primary epithelial cells derived from rainbow trout

CC1=C[C@H]2O[C@@H]3[C@H](O)C[C@](C)([C@@]2(CO)[C@H](O)C1=O)[C@]31CO1 [DON, (3α,7α)-3,7,15-trihydroxy-12,13-epoxytrichothec-9-en-8-one]
Toxicity towards epithelial cells (fluorescence relative to highest DON concentration = 100%): 85.6%
